Anti-infective test results gathered from many reports (values: NIAID ChemDB through PubChem).

All rows: growth or infection tests; organism: Mycobacterium tuberculosis

ECn is the concentration giving n% inhibition of infection, replication or growth. Neighbouring rows are from separate reports. An empty or dashed field is not shown. MIC bound: limit read from a one-dose screen. Percent inhibition refers to the dose given; in toxicity tests it is the harm to the cells. A number after MIC or MFC names an inhibition level or a share of isolates.

structure | read by | dose | measure | strain or isolate | cells | changes | result
O=C(Nc1cnccn1)c1cc(Br)ccc1O |  |  | MIC | My 331/88 |  |  | 125 µM
CCCNCCC(=O)Nc1ccc(C)c(Cl)c1.Cl | BACTEC | 12.5 µg/mL | inhibition | H37Rv |  |  | 0%
CC(=O)c1ccnc(C2=CC(=O)c3ccccc3C2=O)c1 | resazurin |  | MIC90 | H37Rv |  |  | 3.13 µg/mL
CN(C)CC(O)c1ccc2c(c1)oc1ccccc12 | BACTEC |  | MIC bound | H37Rv |  |  | >12.5 µg/mL
COc1cccc(Nc2nc(NNc3nc(-c4ccccc4)c(C#N)c(=O)n3C)nc(Nc3cccc(OC)c3)n2)c1 |  |  | EC50 | H37Rv | VERO |  | <12.5 µg/mL
O=C(NNC1O[C@@H](CO)[C@@H](O)[C@H](O)[C@H]1O)c1ccncc1 |  |  | MIC90 | H37Rv (ATCC 27294) |  |  | 3.12 µg/mL
CC(C)c1ccc(C2=NO[C@@]3(O2)/C(=C\c2ccc(Cl)cc2Cl)CN([C@H](C)c2ccccc2)CC32ON=C(c3ccc(C(C)C)cc3)[C@H]2c2ccc(Cl)cc2Cl)cc1 |  |  | MIC | H37Rv |  |  | 7.44 µM
O=C1NC(=S)N/C1=C/c1ccc(-c2ccccc2)cc1 |  |  | EC50 | H37Rv |  |  | <6.25 µg/mL
O=C1c2ccccc2C(=O)c2cc(C[P+](c3ccccc3)(c3ccccc3)c3ccccc3)ccc21 | resazurin |  | MIC | FJ05349 |  | Clinically sensitive strain | 1 µg/mL
O=C(Nc1cncs1)c1cc(Br)ccc1O |  |  | MIC | My 331/88 |  |  | 62.5 µM
O=C(/C=C/c1ccc(O)cc1)NNC(=O)c1ccncc1 | resazurin |  | MIC | H37Rv |  |  | 26.4 µM
C[C@H](c1ccccc1)N1CC(=Cc2cccc3ccccc23)[C@]2(ON=C(c3ccccc3)O2)C2(C1)ON=C(c1ccccc1)[C@H]2c1cccc2ccccc12 |  |  | MIC | H37Rv |  |  | 4.36 µM
Cn1c(NNc2nc(NCc3ccco3)nc(NCc3ccco3)n2)nc(-c2ccccc2)c(C#N)c1=O |  |  | EC50 | H37Rv |  |  | >12.5 µg/mL
NC1CN(c2c(F)cc3c(=O)c(C(=O)O)cn(C4CC4)c3c2Cl)CC12CC2 |  |  | MIC | 68 (RFP-susceptible) |  |  | 0.1 µg/mL
O=C1CC2C(CC3OC(=O)C4C3C23COC4(O)C(O)C3)c2occc21 | BACTEC |  | MIC bound | H37Rv |  |  | >12.5 µg/mL
C=CCOc1cccc(/C=C2/NC(=S)NC2=O)c1 |  | 6.25 µg/mL | inhibition | H37Rv |  |  | 93%
O=C1N=C2Sc3ccc4ccccc4c3N2C1=O | resazurin | 6.25 µg/mL | inhibition | H37Rv |  |  | 23%
C[C@H](c1ccccc1)N1C/C(=C\c2ccc(Cl)cc2Cl)[C@@]2(ON=C(c3ccc(Cl)cc3)O2)[C@@]2(C1)ON=C(c1ccc(Cl)cc1)[C@@H]2c1ccc(Cl)cc1Cl |  |  | MIC | H37Rv |  |  | 0.49 µM
CCCCCCCCCCCCCCCC1C(N)C(=O)N(C)N1C | BACTEC |  | MIC | H37Rv |  |  | ≥12.8 µg/mL
OCc1cc(-c2ccc(Cl)cc2)n(-c2ccc(Cl)cc2)n1 | absorbance |  | MIC | H37Rv |  |  | 50 µg/mL
Cn1c(NNc2nc(NCc3ccccc3)nc(NCc3ccccc3)n2)nc(-c2ccccc2)c(C#N)c1=O |  |  | EC50 | H37Rv |  |  | <12.5 µg/mL
CC(=O)c1cncc(C2=CC(=O)c3ccccc3C2=O)n1 | resazurin |  | MIC90 | H37Rv |  |  | >6.25 µg/mL
CCOC(=O)Cc1csc(NC(=O)CSC(=S)N2CCCCC2C)n1 |  |  | MIC | H37Rv |  |  | >156 µg/mL
Cn1c(NNc2nc(Nc3cccc([N+](=O)[O-])c3)nc(Nc3cccc([N+](=O)[O-])c3)n2)nc(-c2ccccc2)c(C#N)c1=O |  |  | EC50 | H37Rv |  |  | <12.5 µg/mL
COc1ccc(C(=O)Nn2cncn2)c(O)c1 |  |  | MIC | My 331/88 |  |  | 1000 µM
N#CC1=C([N+](=O)[O-])NC2OC[C@@H](OCc3ccc(OC(F)(F)F)cc3)CN12 | broth dilution |  | MIC | wtH37Rv |  |  | >100 µM
CC(=O)Cn1c(=O)oc2ccc([N+](=O)[O-])cc2c1=O | resazurin | 6.25 µg/mL | inhibition | H37Rv |  |  | -13%
CCOC(=O)Cc1csc(NC(=O)C(SC(=S)N(CC)CC)c2ccccc2)n1 |  |  | MIC | H37Rv |  |  | >156 µg/mL
Cc1c(C(=S)N2CC[Si](C)(C)CC2)nn(-c2ccc(Cl)cc2Cl)c1-c1ccc(Cl)cc1 | absorbance |  | MIC | H37Rv |  |  | >100 µg/mL
O=C(Nc1ccn[nH]1)c1ccc([N+](=O)[O-])o1 |  |  | MIC | H37Ra |  |  | 6.25 µg/mL
O=C(/C=C/c1cc(F)cc(F)c1)NNC(=O)c1ccncc1 | resazurin |  | MIC | H37Rv |  |  | 55.8 µM
Cc1cc2c(cc1C)NC1=C(N2)OC(c2cccc(O)c2)C1=O | BACTEC |  | MIC bound | H37Rv |  |  | >12.5 µg/mL
CCOC(=O)Cc1csc(NC(=O)CSC(=S)N(CC)CC)n1 |  |  | MIC | H37Rv |  |  | >156 µg/mL
CC(=O)N1CCNC(C2=CC(=O)c3ccccc3C2=O)C1 | resazurin |  | MIC90 | H37Rv |  |  | 3.13 µg/mL
CC(=O)N[C@@H]1C(NNC(=O)c2ccncc2)O[C@@H](CO)[C@@H](O)[C@@H]1O |  |  | MIC90 | H37Rv (ATCC 27294) |  |  | >100 µg/mL
O=C1NC(=S)NC1/C=C/c1ccccc1 |  |  | EC50 | H37Rv |  |  | <6.25 µg/mL
CCC1CN(c2c(F)cc3c(=O)c(C(=O)O)cn([C@@H]4C[C@@H]4F)c3c2OC)CCN1 |  |  | MIC | 56 (RFP-resistant) |  |  | 64 µg/mL
Cn1nc(NC(=O)c2cc(N)nn2C)cc1C(=O)Nc1ccc2cc(S(=O)(=O)O)cc(S(=O)(=O)O)c2c1 | BACTEC |  | MIC bound | H37Rv |  |  | >12.5 µg/mL
Cn1c(NNc2nc(Nc3ccccn3)nc(Nc3ccccn3)n2)nc(-c2ccc(Cl)cc2)c(C#N)c1=O |  |  | EC50 | H37Rv |  |  | >12.5 µg/mL
COc1ccc2c(c1)[n+]([O-])c(S(=O)(=O)c1ccc(C)cc1)c(N)[n+]2[O-] |  |  | MIC | H37Rv |  |  | >12.5 µg/mL
COC(=O)CNC(=O)c1cc(-c2ccc(Cl)cc2)n(-c2ccc(Cl)cc2)n1 | absorbance |  | MIC | H37Rv |  |  | 50 µg/mL
CO[C@@H]1[C@@H](OC(=O)c2ccc(C)[nH]2)[C@@H](O)C(Oc2ccc3c(O)c(NC(=O)c4c[nH]c(C(=O)Nc5c(O)c6ccc(OC7OC(C)(C)[C@H](OC)[C@@H](OC(=O)c8ccc(C)[nH]8)[C@H]7O)c(C)c6oc5=O)c4C)c(=O)oc3c2C)OC1(C)C |  |  | MIC | CS-R |  |  | 3.2 µg/mL
O=C1NC(=S)N/C1=C/c1cccc(OCCc2ccccc2)c1 |  | 6.25 µg/mL | inhibition | H37Rv |  |  | 93%
C[C@H](c1ccccc1)N1C/C(=C/c2ccccc2Br)[C@]2(ON=C(c3ccccc3)O2)C2(C1)ON=C(c1ccccc1)[C@H]2c1ccccc1Br |  |  | MIC | H37Rv |  |  | 8.06 µM
Cc1c(CN2CCOCC2)nn(-c2ccc(Cl)cc2Cl)c1-c1ccc(Cl)cc1 | absorbance |  | MIC | H37Rv |  |  | 50 µg/mL
C[C@H](c1ccccc1)N1C/C(=C/c2ccccc2)[C@]2(ON=C(c3ccc(Cl)cc3)O2)C2(C1)ON=C(c1ccc(Cl)cc1)[C@H]2c1ccccc1 |  |  | MIC | H37Rv |  |  | 9.1 µM
CCc1ccc2c(c1)C(=O)C=CC2=O | resazurin |  | MIC90 | H37Rv |  |  | >6.25 µg/mL
COc1ccc2c(c1)OC(C)(C)C(c1ccccc1)=C2c1ccc2c(c1)NC(=O)CO2 | BACTEC |  | MIC bound | H37Rv |  |  | >12.5 µg/mL
C[C@H](c1ccccc1)N1C/C(=C/c2ccccc2Cl)[C@]2(ON=C(c3ccc(Cl)cc3)O2)C2(C1)ON=C(c1ccc(Cl)cc1)[C@H]2c1ccccc1Cl |  |  | MIC | MDR-TB |  |  | 2.06 µM
Cn1c(NNc2nc(Nc3ccc(F)c(Cl)c3)nc(Nc3ccc(F)c(Cl)c3)n2)nc(-c2ccccc2)c(C#N)c1=O |  | 12.5 µg/mL | inhibition | H37Rv |  |  | 98%
CCN(CC)CCn1c(C)nc2c1C(=O)c1nc(C)n(CCN(CC)CC)c1C2=O.Cl.Cl | BACTEC |  | MIC bound | H37Rv |  |  | >12.5 µg/mL
O=C(N/N=C/c1cccc([N+](=O)[O-])c1)c1ccncc1 |  |  | MIC90 | Erdman |  |  | 0.125 µg/mL
Cc1cc(C)c2c(=O)c3c(oc2c1)OC(C)(CO)CC3c1ccccc1 | BACTEC | 12.5 µg/mL | inhibition | H37Rv |  |  | 16%
COc1ccc(/C=C/C=N/NC(=O)c2ccncc2)cc1 |  |  | MIC90 | H37Rv |  |  | 0.2 µg/mL
Cc1csc(NC(=O)c2ccc(Cl)cc2O)n1 |  |  | MIC | My 331/88 |  |  | 16 µM
Cc1c(C(=O)N(C)C)nn(-c2ccc(Cl)cc2Cl)c1-c1ccc(Cl)cc1 | absorbance |  | MIC | H37Rv |  |  | 50 µg/mL
C[C@@H]1OC(NNC(=O)c2ccncc2)[C@H](O)[C@@H](O)[C@H]1O |  |  | MIC90 | H37Rv (ATCC 27294) |  |  | 0.62 µg/mL
CC(=O)OCC1OC(n2nc([N+](=O)[O-])nc2Br)C(OC(C)=O)C1OC(C)=O | BACTEC | 12.5 µg/mL | inhibition | H37Rv |  |  | -1%
C[C@H](c1ccccc1)N1C/C(=C\c2ccc(Cl)cc2Cl)[C@@]2(ON=C(c3ccccc3)O2)[C@@]2(C1)ON=C(c1ccccc1)[C@@H]2c1ccc(Cl)cc1Cl |  |  | MIC | MDR-TB |  |  | 0.53 µM
C=CCOc1ccc(/C=C2/NC(=S)NC2=O)cc1 |  |  | EC50 | H37Rv |  |  | <6.25 µg/mL
NC(=O)c1ncn([C@@H]2OC[C@@H](O)[C@@H](O)[C@H]2O)c1N | BACTEC |  | MIC bound |  |  |  | >6.25 µg/mL
Cc1c(C(=O)N(CCO)CCO)nn(-c2ccc(Cl)cc2Cl)c1-c1ccc(Cl)cc1 | absorbance |  | MIC | H37Rv |  |  | >100 µg/mL
CCOC(=O)Cc1csc(NC(=O)CSC(=S)N2CCC(C)CC2)n1 |  |  | MIC | H37Rv |  |  | >156 µg/mL
CCCCCCC1=C(O)C(=O)C(CCCCCC)=C(O)C1=O | BACTEC |  | MIC bound | H37Rv |  |  | ≤128 µg/mL
CC(C)c1ccc(/C=C2/NC(=S)NC2=O)cc1 |  | 6.25 µg/mL | inhibition | H37Rv |  |  | 89%
CCOC(=O)Cc1csc(NC(=O)C(SC(=S)N(C)C)c2ccccc2)n1 |  |  | MIC | H37Rv |  |  | >156 µg/mL
O=C1NC(=S)N/C1=C/c1ccc2ccccc2c1 |  |  | EC50 | H37Rv |  |  | <6.25 µg/mL
Cc1cc(O)c2c(c1O)C(=O)c1cccc(O)c1C2=O | BACTEC |  | MIC bound | H37Rv |  |  | >12.5 µg/mL
O=C(NNC1OC[C@@H](O)[C@H](O)[C@@H]1O)c1ccncc1 |  |  | MIC90 | H37Rv (ATCC 27294) |  |  | >100 µg/mL
CCCOc1ccc(/C=C2/NC(=S)NC2=O)cc1 |  |  | EC50 | H37Rv |  |  | <6.25 µg/mL
Cc1cc2c(=O)n(-c3ccc(F)cc3)c(C)nc2c(C(=O)O)c1C | BACTEC |  | MIC bound | H37Rv |  |  | >12.5 µg/mL
O=C(Nc1cnccn1)c1ccccc1O |  |  | MIC | My 331/88 |  |  | 125 µM
CCCC/C=C(/C=N/NC(=O)c1ccncc1)CCC |  |  | MIC90 | H37Rv |  |  | 0.5 µg/mL
CCOC(=O)Cc1csc(NC(=O)C(SC(=S)N2CCC(C)CC2)c2ccccc2)n1 |  |  | MIC | H37Rv |  |  | >156 µg/mL
COC(=O)/C=C/C(=O)N1CC(C)N(C(=O)/C=C/C(=O)OC)CC1C | BACTEC |  | MIC | H37Rv |  |  | ≥12.5 µg/mL
O=C(Nn1cncn1)c1cc(Cl)ccc1O |  |  | MIC | My 331/88 |  |  | 1000 µM
COc1ccc(Nc2nc(NNc3nc(-c4ccccc4)c(C#N)c(=O)n3C)nc(Nc3ccc(OC)cc3)n2)cc1 |  |  | MIC | H37Rv |  |  | >12.5 µg/mL
[O-][n+]1c2ccccc2[n+]([O-])c2c3ccccc3[nH]c21 | BACTEC |  | MIC | H37Rv |  |  | 0.78 µg/mL
O=C(NN=C1CCCCC1)c1ccncc1 |  |  | MIC99 |  |  |  | 0.42 µg/mL
C[C@H](c1ccccc1)N1C/C(=C\c2ccccc2Br)C(=O)/C(=C/c2ccccc2Br)C1 |  |  | MIC | H37Rv |  |  | 23.26 µM
COc1cnccc1C(=O)NNC(=O)/C=C/c1ccc(O)cc1 | resazurin |  | MIC | H37Rv |  |  | 29.2 µM
C[Si](C)(C)CCNC(=O)c1nn(-c2ccc(Cl)cc2Cl)c(-c2ccc(Cl)cc2)c1CO | absorbance |  | MIC | H37Rv |  |  | >100 µg/mL
CC1=C(C)C(=O)c2ccccc2C1=O | resazurin |  | MIC90 | H37Rv |  |  | >6.25 µg/mL

The first 4 rows once more:

| structure | read by | dose | measure | strain or isolate | cells | changes | result |
|---|---|---|---|---|---|---|---|
| O=C(Nc1cnccn1)c1cc(Br)ccc1O |  |  | MIC | My 331/88 |  |  | 125 µM |
| CCCNCCC(=O)Nc1ccc(C)c(Cl)c1.Cl | BACTEC | 12.5 µg/mL | inhibition | H37Rv |  |  | 0% |
| CC(=O)c1ccnc(C2=CC(=O)c3ccccc3C2=O)c1 | resazurin |  | MIC90 | H37Rv |  |  | 3.13 µg/mL |
| CN(C)CC(O)c1ccc2c(c1)oc1ccccc12 | BACTEC |  | MIC bound | H37Rv |  |  | >12.5 µg/mL |